Test results reported in ChEMBL document CHEMBL4811225 (J Med Chem, 2021).

Chains of the proteins cited; added tags and fusions are not shown. Residues count along the entry.
UniProt P12392, 21-495 limits assumed: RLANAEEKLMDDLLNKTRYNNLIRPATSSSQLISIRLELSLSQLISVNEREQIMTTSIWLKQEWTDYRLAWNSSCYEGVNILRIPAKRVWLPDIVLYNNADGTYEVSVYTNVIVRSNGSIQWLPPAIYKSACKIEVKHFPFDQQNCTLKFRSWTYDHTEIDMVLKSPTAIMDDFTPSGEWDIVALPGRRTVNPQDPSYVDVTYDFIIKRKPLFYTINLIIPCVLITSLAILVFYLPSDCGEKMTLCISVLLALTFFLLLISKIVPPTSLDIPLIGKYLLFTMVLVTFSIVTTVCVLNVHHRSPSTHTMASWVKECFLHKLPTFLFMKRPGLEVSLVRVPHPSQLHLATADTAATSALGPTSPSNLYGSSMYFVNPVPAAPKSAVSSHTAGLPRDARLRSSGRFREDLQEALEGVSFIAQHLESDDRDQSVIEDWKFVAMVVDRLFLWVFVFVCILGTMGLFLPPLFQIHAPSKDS
UniProt P43143, 31-493 limits assumed: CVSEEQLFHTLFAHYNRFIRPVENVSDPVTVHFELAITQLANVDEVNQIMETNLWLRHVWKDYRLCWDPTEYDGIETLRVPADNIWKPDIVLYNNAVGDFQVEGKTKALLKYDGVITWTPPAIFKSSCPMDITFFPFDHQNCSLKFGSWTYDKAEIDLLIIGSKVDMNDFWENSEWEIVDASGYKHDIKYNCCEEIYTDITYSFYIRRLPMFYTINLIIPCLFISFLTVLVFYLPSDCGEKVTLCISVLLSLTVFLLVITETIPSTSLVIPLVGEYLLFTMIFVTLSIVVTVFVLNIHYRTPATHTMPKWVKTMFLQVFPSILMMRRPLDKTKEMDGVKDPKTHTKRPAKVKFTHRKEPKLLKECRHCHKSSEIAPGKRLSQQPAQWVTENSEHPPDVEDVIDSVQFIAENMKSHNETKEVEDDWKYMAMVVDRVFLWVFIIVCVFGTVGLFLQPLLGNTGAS
UniProt P04757, 26-499 limits assumed: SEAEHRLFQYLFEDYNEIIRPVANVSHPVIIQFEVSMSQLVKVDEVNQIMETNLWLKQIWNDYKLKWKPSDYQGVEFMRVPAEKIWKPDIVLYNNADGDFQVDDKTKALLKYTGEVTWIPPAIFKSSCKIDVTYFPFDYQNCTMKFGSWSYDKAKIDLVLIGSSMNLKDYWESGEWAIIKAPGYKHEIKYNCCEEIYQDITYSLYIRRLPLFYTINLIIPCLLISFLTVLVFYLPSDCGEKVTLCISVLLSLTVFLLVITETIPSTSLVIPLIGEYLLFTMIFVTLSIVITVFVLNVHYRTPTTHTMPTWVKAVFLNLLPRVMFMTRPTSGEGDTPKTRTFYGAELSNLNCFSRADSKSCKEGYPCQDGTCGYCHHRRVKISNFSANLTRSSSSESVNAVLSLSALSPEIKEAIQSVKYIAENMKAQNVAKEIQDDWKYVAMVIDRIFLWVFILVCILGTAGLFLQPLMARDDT
UniProt P30926, 22-498 limits assumed: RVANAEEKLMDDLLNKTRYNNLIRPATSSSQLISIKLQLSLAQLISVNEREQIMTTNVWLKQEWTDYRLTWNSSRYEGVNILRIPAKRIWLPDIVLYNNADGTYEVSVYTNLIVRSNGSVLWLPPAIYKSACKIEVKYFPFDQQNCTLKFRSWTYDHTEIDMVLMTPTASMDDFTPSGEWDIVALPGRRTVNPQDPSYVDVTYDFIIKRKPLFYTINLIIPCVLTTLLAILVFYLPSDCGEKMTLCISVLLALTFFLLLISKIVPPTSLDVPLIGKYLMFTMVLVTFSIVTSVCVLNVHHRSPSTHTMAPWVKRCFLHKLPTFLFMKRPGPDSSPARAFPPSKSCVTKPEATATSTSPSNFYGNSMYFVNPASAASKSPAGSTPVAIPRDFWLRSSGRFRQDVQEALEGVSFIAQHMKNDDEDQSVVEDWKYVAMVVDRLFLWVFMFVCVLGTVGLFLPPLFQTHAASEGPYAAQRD
UniProt P32297, 32-505 limits assumed: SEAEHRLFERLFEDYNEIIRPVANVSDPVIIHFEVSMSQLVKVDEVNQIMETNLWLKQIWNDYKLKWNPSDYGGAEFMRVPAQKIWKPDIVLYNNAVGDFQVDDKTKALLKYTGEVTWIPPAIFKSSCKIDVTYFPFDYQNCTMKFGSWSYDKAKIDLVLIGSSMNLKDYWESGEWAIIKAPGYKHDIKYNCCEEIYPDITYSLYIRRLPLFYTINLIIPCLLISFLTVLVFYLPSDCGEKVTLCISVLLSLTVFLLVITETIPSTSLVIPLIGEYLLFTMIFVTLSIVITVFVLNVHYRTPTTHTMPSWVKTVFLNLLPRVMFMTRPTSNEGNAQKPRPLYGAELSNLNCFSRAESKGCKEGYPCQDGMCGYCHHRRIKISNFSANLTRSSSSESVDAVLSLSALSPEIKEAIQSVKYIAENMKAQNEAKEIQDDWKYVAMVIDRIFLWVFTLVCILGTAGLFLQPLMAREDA
UniProt Q15825, 26-494 limits assumed: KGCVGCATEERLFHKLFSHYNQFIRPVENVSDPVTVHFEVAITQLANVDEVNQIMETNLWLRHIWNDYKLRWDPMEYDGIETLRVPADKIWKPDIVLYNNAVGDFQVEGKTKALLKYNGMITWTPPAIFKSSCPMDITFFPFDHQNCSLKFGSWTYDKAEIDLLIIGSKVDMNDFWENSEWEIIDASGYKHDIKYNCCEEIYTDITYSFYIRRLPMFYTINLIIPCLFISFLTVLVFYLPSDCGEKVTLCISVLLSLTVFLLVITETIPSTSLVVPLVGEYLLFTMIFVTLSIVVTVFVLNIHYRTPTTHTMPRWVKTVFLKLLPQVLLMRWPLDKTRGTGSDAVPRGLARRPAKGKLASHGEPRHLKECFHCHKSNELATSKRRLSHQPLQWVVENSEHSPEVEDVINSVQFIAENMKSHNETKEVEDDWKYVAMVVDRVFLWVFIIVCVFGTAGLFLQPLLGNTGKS

Assays:
Details in all cases: oocyte
[1] = biological target: Neuronal acetylcholine receptor subunit alpha-6/beta-4 (Rattus norvegicus, UniProt P12392+P43143)
[2] = biological target: Nicotinic acetylcholine receptor alpha6/alpha3/beta4 (Rattus norvegicus, UniProt P04757+P12392+P43143)
[3] = biological target: Nicotinic acetylcholine receptor alpha6/alpha3/beta4 (Homo sapiens, UniProt P30926+P32297+Q15825)

CC[C@H](C)[C@@H]1NC(=O)[C@H](CCC(=O)O)NC(=O)[C@@H]2CCCN2C(=O)[C@H](Cc2cnc[nH]2)NC(=O)[C@H](CC(N)=O)NC(=O)[C@H](C(C)C)NC(=O)[C@H](CO)NC(=O)[C@@H]2CSSC[C@H](NC(=O)CN)C(=O)N[C@@H](CSSC[C@@H](C(N)=O)NC1=O)C(=O)N[C@@H](CO)C(=O)N[C@@H](Cc1cnc[nH]1)C(=O)N1CCC[C@H]1C(=O)N[C@@H](C)C(=O)N2
IC50 [1]: 49.7 nM
IC50 [2]: 113 nM
IC50 [3]: 2.84 nM

CC(C)C[C@@H]1NC(=O)[C@H](CCC(=O)O)NC(=O)[C@@H]2CCCN2C(=O)[C@H](Cc2cnc[nH]2)NC(=O)[C@H](CC(N)=O)NC(=O)[C@H](C(C)C)NC(=O)[C@H](CC(N)=O)NC(=O)[C@@H]2CSSC[C@H](NC(=O)CN)C(=O)N[C@@H](CSSC[C@@H](C(N)=O)NC1=O)C(=O)N[C@@H](CO)C(=O)N[C@@H](Cc1cnc[nH]1)C(=O)N1CCC[C@H]1C(=O)N[C@@H](C)C(=O)N2
IC50 [1]: 17.2 nM
IC50 [2]: 13.4 nM
IC50 [3]: 2.2 nM

CC(C)C[C@@H]1NC(=O)[C@H](CCC(=O)O)NC(=O)[C@@H]2CCCN2C(=O)[C@H](Cc2cnc[nH]2)NC(=O)[C@H](CC(N)=O)NC(=O)[C@H](C(C)C)NC(=O)[C@H](Cc2cnc[nH]2)NC(=O)[C@@H]2CSSC[C@H](NC(=O)CN)C(=O)N[C@@H](CSSC[C@@H](C(N)=O)NC1=O)C(=O)N[C@@H](CO)C(=O)N[C@@H](Cc1cnc[nH]1)C(=O)N1CCC[C@H]1C(=O)N[C@@H](C)C(=O)N2
IC50 [2]: 18.3 nM
IC50 [3]: 2.9 nM

CC(C)C[C@@H]1NC(=O)[C@H](C)NC(=O)[C@@H]2CCCN2C(=O)[C@H](Cc2cnc[nH]2)NC(=O)[C@H](CC(N)=O)NC(=O)[C@H](C(C)C)NC(=O)[C@H](CO)NC(=O)[C@@H]2CSSC[C@H](NC(=O)CN)C(=O)N[C@@H](CSSC[C@@H](C(N)=O)NC1=O)C(=O)N[C@@H](CO)C(=O)N[C@@H](Cc1cnc[nH]1)C(=O)N1CCC[C@H]1C(=O)N[C@@H](C)C(=O)N2
IC50 [2]: 230 nM
IC50 [3]: 68 nM

CC(C)C[C@@H]1NC(=O)[C@H](CC(N)=O)NC(=O)[C@@H]2CCCN2C(=O)[C@H](Cc2cnc[nH]2)NC(=O)[C@H](CC(N)=O)NC(=O)[C@H](C(C)C)NC(=O)[C@H](CO)NC(=O)[C@@H]2CSSC[C@H](NC(=O)CN)C(=O)N[C@@H](CSSC[C@@H](C(N)=O)NC1=O)C(=O)N[C@@H](CO)C(=O)N[C@@H](Cc1cnc[nH]1)C(=O)N1CCC[C@H]1C(=O)N[C@@H](C)C(=O)N2
IC50 [2]: 191 nM
IC50 [3]: 16.2 nM

CC(C)C[C@@H]1NC(=O)[C@H](CCC(=O)O)NC(=O)[C@@H]2CCCN2C(=O)[C@H](Cc2cnc[nH]2)NC(=O)[C@H](CC(N)=O)NC(=O)[C@H](CCCNC(=N)N)NC(=O)[C@H](CO)NC(=O)[C@@H]2CSSC[C@H](NC(=O)CN)C(=O)N[C@@H](CSSC[C@@H](C(N)=O)NC1=O)C(=O)N[C@@H](CO)C(=O)N[C@@H](Cc1cnc[nH]1)C(=O)N1CCC[C@H]1C(=O)N[C@@H](C)C(=O)N2
IC50 [2]: 2160 nM
IC50 [3]: 271 nM

CC[C@H](C)[C@@H]1NC(=O)[C@H](CCC(=O)O)NC(=O)[C@@H]2CCCN2C(=O)[C@H](Cc2cnc[nH]2)NC(=O)[C@H](CCCNC(=N)N)NC(=O)[C@H](C(C)C)NC(=O)[C@H](Cc2cnc[nH]2)NC(=O)[C@@H]2CSSC[C@H](NC(=O)CN)C(=O)N[C@@H](CSSC[C@@H](C(N)=O)NC1=O)C(=O)N[C@@H](CO)C(=O)N[C@@H](Cc1cnc[nH]1)C(=O)N1CCC[C@H]1C(=O)N[C@@H](C(C)C)C(=O)N2
IC50 [2]: 3.04 nM
IC50 [3]: 0.41 nM

CC(C)C[C@@H]1NC(=O)[C@H](CCC(=O)O)NC(=O)[C@@H]2CCCN2C(=O)[C@H](Cc2cnc[nH]2)NC(=O)[C@H](CCCCC(=O)O)NC(=O)[C@H](C(C)C)NC(=O)[C@H](CO)NC(=O)[C@@H]2CSSC[C@H](NC(=O)CN)C(=O)N[C@@H](CSSC[C@@H](C(N)=O)NC1=O)C(=O)N[C@@H](CO)C(=O)N[C@@H](Cc1cnc[nH]1)C(=O)N1CCC[C@H]1C(=O)N[C@@H](C)C(=O)N2
IC50 [2]: 275 nM
IC50 [3]: 18.9 nM

CC(C)C[C@@H]1NC(=O)[C@H](CCC(=O)O)NC(=O)[C@@H]2CCCN2C(=O)[C@H](Cc2cnc[nH]2)NC(=O)[C@H](CC(N)=O)NC(=O)[C@H](C(C)C)NC(=O)[C@H](CO)NC(=O)[C@@H]2CSSC[C@H](NC(=O)CN)C(=O)N[C@@H](CSSC[C@@H](C(N)=O)NC1=O)C(=O)N[C@@H](CO)C(=O)N[C@@H](Cc1cnc[nH]1)C(=O)N[C@@H](C)C(=O)N[C@@H](C)C(=O)N2
IC50 [2]: > 10000 nM
IC50 [3]: 1920 nM

CC(C)C[C@@H]1NC(=O)[C@H](CCC(=O)O)NC(=O)[C@@H]2CCCN2C(=O)[C@H](Cc2cnc[nH]2)NC(=O)[C@H](CC(N)=O)NC(=O)[C@H](C(C)C)NC(=O)[C@H](CO)NC(=O)[C@@H]2CSSC[C@H](NC(=O)CN)C(=O)N[C@@H](CSSC[C@@H](C(N)=O)NC1=O)C(=O)N[C@@H](CCO)C(=O)N[C@@H](Cc1cnc[nH]1)C(=O)N1CCC[C@H]1C(=O)N[C@@H](C)C(=O)N2
IC50 [2]: 670 nM
IC50 [3]: 26.5 nM

CC(C)C[C@@H]1NC(=O)[C@H](CCC(=O)O)NC(=O)[C@@H]2CCCN2C(=O)[C@H](Cc2cnc[nH]2)NC(=O)[C@H](CCCNC(=N)N)NC(=O)[C@H](C(C)C)NC(=O)[C@H](CC(N)=O)NC(=O)[C@@H]2CSSC[C@H](NC(=O)CN)C(=O)N[C@@H](CSSC[C@@H](C(N)=O)NC1=O)C(=O)N[C@@H](CO)C(=O)N[C@@H](Cc1cnc[nH]1)C(=O)N1CCC[C@H]1C(=O)N[C@@H](C(C)C)C(=O)N2
IC50 [2]: 1.81 nM
IC50 [3]: 0.28 nM

CC[C@H](C)[C@@H]1NC(=O)[C@H](CO)NC(=O)[C@@H]2CSSC[C@H](NC(=O)CN)C(=O)N[C@@H](CSSC[C@@H](C(N)=O)NC(=O)[C@H](CC(C)C)NC(=O)[C@H](CCC(=O)O)NC(=O)[C@@H]3CCCN3C(=O)[C@H](Cc3cnc[nH]3)NC(=O)[C@H](CC(N)=O)NC1=O)C(=O)N[C@@H](CO)C(=O)N[C@@H](Cc1cnc[nH]1)C(=O)N1CCC[C@H]1C(=O)N[C@@H](C)C(=O)N2
IC50 [2]: 308 nM
IC50 [3]: 9.24 nM

CC(C)C[C@@H]1NC(=O)[C@H](CCC(=O)O)NC(=O)[C@@H]2CCCN2C(=O)[C@H](Cc2cnc[nH]2)NC(=O)[C@H](CCCNC(=N)N)NC(=O)[C@H](C(C)C)NC(=O)[C@H](Cc2cnc[nH]2)NC(=O)[C@@H]2CSSC[C@H](NC(=O)CN)C(=O)N[C@@H](CSSC[C@@H](C(N)=O)NC1=O)C(=O)N[C@@H](CO)C(=O)N[C@@H](Cc1cnc[nH]1)C(=O)N1CCC[C@H]1C(=O)N[C@@H](C(C)C)C(=O)N2
IC50 [2]: 1.73 nM
IC50 [3]: 0.24 nM

CC(C)C[C@@H]1NC(=O)[C@H](CCC(=O)O)NC(=O)[C@@H]2CCCN2C(=O)[C@H](Cc2cnc[nH]2)NC(=O)[C@H](CC(N)=O)NC(=O)[C@H](C(C)C)NC(=O)[C@H](CO)NC(=O)[C@@H]2CSSC[C@H](NC(=O)CN)C(=O)N[C@@H](CSSC[C@@H](C(N)=O)NC1=O)C(=O)N[C@@H](C)C(=O)N[C@@H](Cc1cnc[nH]1)C(=O)N1CCC[C@H]1C(=O)N[C@@H](C)C(=O)N2
IC50 [2]: 175 nM
IC50 [3]: 22 nM

CC(C)[C@@H]1NC(=O)[C@H](CO)NC(=O)[C@@H]2CSSC[C@H](NC(=O)CN)C(=O)N[C@@H](CSSC[C@@H](C(N)=O)NC(=O)[C@H](C)NC(=O)[C@H](CCC(=O)O)NC(=O)[C@@H]3CCCN3C(=O)[C@H](Cc3cnc[nH]3)NC(=O)[C@H](CC(N)=O)NC1=O)C(=O)N[C@@H](CO)C(=O)N[C@@H](Cc1cnc[nH]1)C(=O)N1CCC[C@H]1C(=O)N[C@@H](C)C(=O)N2
IC50 [2]: 237 nM
IC50 [3]: 89.4 nM

CC(C)C[C@@H]1NC(=O)[C@H](C)NC(=O)[C@@H]2CCCN2C(=O)[C@H](Cc2cnc[nH]2)NC(=O)[C@H](CCCNC(=N)N)NC(=O)[C@H](C)NC(=O)[C@H](CCCNC(=N)N)NC(=O)[C@@H]2CSSC[C@H](NC(=O)CN)C(=O)N[C@@H](CSSC[C@@H](C(N)=O)NC1=O)C(=O)N[C@@H](CO)C(=O)N[C@@H](Cc1cnc[nH]1)C(=O)N1CCC[C@H]1C(=O)N[C@@H](C(C)C)C(=O)N2
IC50 [2]: 9470 nM
IC50 [3]: 53.2 nM

CC(C)C[C@@H]1NC(=O)[C@H](CCC(=O)O)NC(=O)[C@@H]2CCCN2C(=O)[C@H](Cc2cnc[nH]2)NC(=O)[C@H](C)NC(=O)[C@H](C(C)C)NC(=O)[C@H](CO)NC(=O)[C@@H]2CSSC[C@H](NC(=O)CN)C(=O)N[C@@H](CSSC[C@@H](C(N)=O)NC1=O)C(=O)N[C@@H](CO)C(=O)N[C@@H](Cc1cnc[nH]1)C(=O)N1CCC[C@H]1C(=O)N[C@@H](C)C(=O)N2
IC50 [2]: 56.6 nM
IC50 [3]: 10.7 nM

CC(C)C[C@@H]1NC(=O)[C@H](CCC(N)=O)NC(=O)[C@@H]2CCCN2C(=O)[C@H](Cc2cnc[nH]2)NC(=O)[C@H](CC(N)=O)NC(=O)[C@H](C(C)C)NC(=O)[C@H](CO)NC(=O)[C@@H]2CSSC[C@H](NC(=O)CN)C(=O)N[C@@H](CSSC[C@@H](C(N)=O)NC1=O)C(=O)N[C@@H](CO)C(=O)N[C@@H](Cc1cnc[nH]1)C(=O)N1CCC[C@H]1C(=O)N[C@@H](C)C(=O)N2
IC50 [2]: 180 nM
IC50 [3]: 12.6 nM

CC(C)C[C@@H]1NC(=O)[C@H](CCC(=O)O)NC(=O)[C@@H]2CCCN2C(=O)[C@H](Cc2cnc[nH]2)NC(=O)[C@H](CC(N)=O)NC(=O)[C@H](C(C)C)NC(=O)[C@H](CO)NC(=O)[C@@H]2CSSC[C@H](NC(=O)CN)C(=O)N[C@@H](CSSC[C@@H](C(N)=O)NC1=O)C(=O)N[C@@H](CO)C(=O)N[C@@H](C)C(=O)N1CCC[C@H]1C(=O)N[C@@H](C)C(=O)N2
IC50 [2]: > 10000 nM
IC50 [3]: 7610 nM

CCCC[C@@H]1NC(=O)[C@H](CO)NC(=O)[C@@H]2CSSC[C@H](NC(=O)CN)C(=O)N[C@@H](CSSC[C@@H](C(N)=O)NC(=O)[C@H](CC(C)C)NC(=O)[C@H](CCC(=O)O)NC(=O)[C@@H]3CCCN3C(=O)[C@H](Cc3cnc[nH]3)NC(=O)[C@H](CC(N)=O)NC1=O)C(=O)N[C@@H](CO)C(=O)N[C@@H](Cc1cnc[nH]1)C(=O)N1CCC[C@H]1C(=O)N[C@@H](C)C(=O)N2
IC50 [2]: 497 nM
IC50 [3]: 13.4 nM

CC(C)C[C@@H]1NC(=O)[C@H](CCC(=O)O)NC(=O)[C@@H]2CCCN2C(=O)[C@H](Cc2cnc[nH]2)NC(=O)[C@H](CC(N)=O)NC(=O)[C@H](C(C)C)NC(=O)[C@H]([C@@H](C)O)NC(=O)[C@@H]2CSSC[C@H](NC(=O)CN)C(=O)N[C@@H](CSSC[C@@H](C(N)=O)NC1=O)C(=O)N[C@@H](CO)C(=O)N[C@@H](Cc1cnc[nH]1)C(=O)N1CCC[C@H]1C(=O)N[C@@H](C)C(=O)N2
IC50 [2]: 94.6 nM
IC50 [3]: 2 nM
